Pooled drug test results. Numbers come from NIAID ChemDB, via PubChem.

Shared fields: tests in culture

An empty or dashed field is not shown. Fold resistance: result on the changed form divided by that on wild type. a–b is a range or a potency band. ECn is the concentration giving n% inhibition of infection, replication or growth. Neighbouring rows are from separate reports. Inhibition is in % at the dose shown (toxicity tests: loss of growth or viability).

smiles,species,tested at,strain or isolate,method,endpoint,cell line,changes,result
C[C@@]1(O)[C@H](O)[C@@H](CO)O[C@H]1n1ccc2c(N)ncnc21,Hepatitis C virus,50 µg/mL,,MTT,inhibition,Hep3B-T5B,,7.84%
CC1CCC(C(=O)N(c2cc(C#CC(C)(C)C)sc2C(=O)O)C2CCC(O)CC2)CC1,Hepatitis C virus,,Con1,luciferase,fold resistance,1C,M423T,80
CC(C)OC(=O)[C@H](C)N[P@](=O)(CO[C@H](C)Cn1cnc2c(N)ncnc21)Oc1ccccc1,Hepatitis B virus,1 µM,Genotype D,PCR,inhibition,HepaRG,,≤30%
CCC[C@H](NC(=O)[C@@H]1[C@H]2CCC[C@H]2CN1C(=O)[C@@H](NC(=O)[C@@H](NC(=O)c1cnccn1)C1CCCCC1)C(C)(C)C)C(=O)C(=O)NC1CC1,Hepatitis C virus,,1b A156S,luciferase,EC50,,,>10 µM
COC(=O)N[C@H](C(=O)N1CCC[C@H]1c1ncc(-c2ccc(-c3ccc(-c4cnc([C@@H]5CCCN5C(=O)[C@@H](NC(=O)OC)C(C)C)[nH]4)cc3)cc2)[nH]1)C(C)C,Hepatitis C virus,0.00008 µM,1b Con1,luciferase / replicon,inhibition,Huh7,,95.85%
C[C@@]1(O)[C@H](O)[C@@H](CO)O[C@H]1c1coc2c(N)ncnc12,Hepatitis C virus,50 µg/mL,,MTT,inhibition,HepG2-T5B,,0%
CCC(CCC(C)C1CCC2C3C[C@@H](O)[C@@]4(O)C[C@@H](O)CCC4(C)C3CCC12C)C(C)C,Hepatitis B virus,25 µg/mL,,antigen,inhibition,HepG2 2.2.15,,34.3%
CC(C)(CO)C(=O)SCCOP(=O)(NCc1ccccc1)OC[C@H]1O[C@@H](n2cnc3c(=O)[nH]c(N)nc32)[C@](C)(O)[C@@H]1O,Hepatitis C virus,,GT1b,replicon,fold resistance,Replicon cells,L28T,0.51
C[C@H](Cn1cnc2c(N)ncnc21)OCP1(=O)OCC(CC(=O)OC2CCCC2)CO1,Hepatitis B virus,1 µM,Genotype D,PCR,inhibition,HepaRG,,≤30%
CC(C)OC(=O)[C@H](C)N[P@](=O)(OC[C@H]1O[C@@](C#N)(c2ccc3c(N)ncnn23)[C@](C)(O)[C@@H]1OC(=O)C(C)C)Oc1ccccc1,Hepatitis C virus,,1b Con1,luciferase,fold resistance,1C,T54A,0.81
COC(=O)CCC1COP(=O)(CO[C@H](C)Cn2cnc3c(N)ncnc32)OC1,Hepatitis B virus,1 µM,Genotype D,PCR,inhibition,HepaRG,,50–80%
COc1ccc2c(O[C@@H]3C[C@H]4C(=O)N[C@]5(C(=O)NS(=O)(=O)C6CC6)C[C@H]5/C=C\CCCCN(C)C(=O)[C@@H]4C3)cc(-c3nc(C(C)C)cs3)nc2c1C,Hepatitis C virus,0.012 µM,1b,luciferase / replicon,inhibition,Huh7,,96.91%
CC(C)(C)OC(=O)N[C@@H]1CCCCC/C=C\[C@@H]2C[C@@]2(C(=O)NS(=O)(=O)C2CC2)NC(=O)[C@@H]2C[C@@H](OC(=O)N3Cc4cccc(F)c4C3)CN2C1=O,Hepatitis C virus,,K3a/650,antigen,EC50,Huh7.5,,2.29 µM
CCOC(=O)CC1COP(=O)(CO[C@H](C)Cn2cnc3c(NC(=O)CC(C)C)ncnc32)OC1,Hepatitis B virus,1 µM,Genotype D,PCR,inhibition,PHH,,≤30%
COc1ccc2c(O[C@@H]3C[C@H]4C(=O)N[C@]5(C(=O)NS(=O)(=O)C6CC6)C[C@H]5/C=C\CCCCN(C)C(=O)[C@@H]4C3)cc(-c3nc(C(C)C)cs3)nc2c1C,Hepatitis C virus,,NZL1,antigen,EC50,Huh7.5,,2.061 µM
CCOC(=O)CC1COP(=O)(CO[C@H](C)Cn2cnc3c(N(C(C)=O)C(C)=O)ncnc32)OC1,Hepatitis B virus,1 µM,Genotype D,PCR,inhibition,HepaRG,,50–80%

The first 2 rows once more:

smiles,species,tested at,strain or isolate,method,endpoint,cell line,changes,result
C[C@@]1(O)[C@H](O)[C@@H](CO)O[C@H]1n1ccc2c(N)ncnc21,Hepatitis C virus,50 µg/mL,,MTT,inhibition,Hep3B-T5B,,7.84%
CC1CCC(C(=O)N(c2cc(C#CC(C)(C)C)sc2C(=O)O)C2CCC(O)CC2)CC1,Hepatitis C virus,,Con1,luciferase,fold resistance,1C,M423T,80